Assays:
[1] = target: GrlR from EHEC (strain EDL933), wild type, His-tagged (enterohemorrhagic Escherichia coli (EHEC) EDL933); assay: AUC
[2] = target: GrlR from EHEC (strain EDL933), wild type, His-tagged (enterohemorrhagic Escherichia coli (EHEC) EDL933); assay: SEC + other: dynamic light scattering

Substance: GrlR from EHEC (strain EDL933), wild type, His-tagged (natural protein)
- stoichiometry N [1]: 2
- stoichiometry N [2]: 2
